Drawing on the supplement of paper PMC3842684, this text covers relative % inhibition for two compounds.

The structures appear in SMILES notation. The list shows a part of the results, in another mix than the full data.

Test [1] has as its system P. falciparum NF54-pfs16-GFP early (I-III) stage gametocytes. Kind of test: relative % inhibition of viable gametocyte number; higher = more gametocytocidal. The conditions noted are these: stage: early (I-III) gametocyte, incubation 72 h. The essentials:
(§1)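 Viable gametocytes were counted by confocal imaging as elongated GFP objects carrying MitoTracker Red signal above a cut-off, after 72 h of compound exposure (5 or 0.5 µM) at 37°C in 5% CO2 and 5% O2 and overnight staining. The NF54 pfs16-GFP gametocytes had been magnet-isolated at early (I/IIa, day 2) or late (day 8) stage and plated at 10% parasitaemia, 0.1% haematocrit in 384-well poly-D-lysine imaging plates. Relative inhibition was normalised to vehicle and positive-control wells within each plate.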

Test [2] deals with P. falciparum NF54-pfs16-GFP late (IV-V) stage gametocytes. Described as above. The conditions noted are these: stage: late (IV-V) gametocyte, incubation 72 h. The method in brief:
as §1

On to `c1ccc2c(NCCCCCCNc3c4c(nc5ccccc35)CCCC4)c3c(nc2c1)CCCC3`, for which the relative % inhibition in test [1] (0.5 µM) was determined as 40.6%; in test [1] (5 µM), 65.9%; in test [2] (0.5 µM) it was 29.6%; in test [2] (5 µM), 86.9%.
With `CCC1(C)CC(CCNCc2ccccc2O)(c2ccc(C)cc2)CCO1` (stereo not drawn), the relative % inhibition in test [1] (0.5 µM) is 81.7%; in test [1] (5 µM) it was 87.3%; in test [2] (0.5 µM), 46.6%; in test [2] (5 µM), 66.1%.
